Measured values taken from ChEMBL document CHEMBL3045109, “Inhibitory effect of bionic fungicide 2-allylphenol on Botrytis cinerea (Pers. ex Fr.) in vitro” (Pest Manag Sci, 2009).
Calls of active or inactive are those of the source. No cut-off for these calls is given here.

Experiments:
[1] = tested on: Pyricularia grisea; experiment: Induction of cyanide-resistant respiration in Magnaporthe grisea mycelium assessed as recovery of rate of oxygen consumption at 10 uM by oxygen electrode recording analysis
[2] = tested on: Pyricularia grisea; experiment: Induction of cyanide-resistant respiration in Magnaporthe grisea mycelium assessed as recovery of rate of oxygen consumption at 100 mg/L after 3 to 36 hr by oxygen electrode recording analysis
[3] = tested on: Pyricularia grisea; experiment: Induction of cyanide-resistant respiration in Magnaporthe grisea mycelium assessed as recovery of rate of oxygen consumption at 100 mg/L by oxygen electrode recording analysis in presence of 1 mM cytochrome-C oxidase inhibitor, KCN
[4] = tested on: Pyricularia grisea; experiment: Induction of cyanide-resistant respiration in Magnaporthe grisea mycelium assessed as rate of oxygen consumption at 100 mg/L by oxygen electrode recording analysis in presence of 2 mM mitochondrial alternative oxidase inhibitor, SHAM

## CCCCCC[C@H]1C(=O)O[C@H](C)[C@H](NC(=O)c2cccc(NC=O)c2O)C(=O)O[C@@H](C)[C@@H]1OC(=O)CC(C)C [ANTIMYCIN A]
[1]
  Activity: Active

## C=CCc1ccccc1O [2-ALLYLPHENOL]
[2]
  Activity: Active
[3]
  Activity: Active
[4]
  Activity: inactive
